The values that follow come from publication PMC8166163.

In the experiment the target is HIV-1 NL4.3 envelope glycoprotein (Env), WT, full-length cytoplasmic tail (HIV-1 NL4.3).

With “soluble CD4 (from UniProt P01730 26-396) (receptor)”, the neutralisation of HIV-1 NL4.3 WT virus by sCD4, IC50 amounted to 5.3 µg/mL.
